Test results taken from PubChem BioAssay (NCI).
The entries are a selection whose mix differs from that of the whole data set.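 Negative percent growth values reflect cell death: -40 means 40% of the cells present at the start died, and -100 means all died.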 Active and inactive are the calls of the source. Rule for the calls: active = growth percent below 10; inactive = the rest.

Key:
Assay in all cases: NCI-60 one-dose screen, 48 h (100 = growth as untreated, 0 = no growth, -100 = all killed)
Conditions in all cases: 10 µM
NCI-H23 lung = test system: NCI-H23 lung
NCI-H226 lung = test system: NCI-H226 lung
NCI-H322M lung = test system: NCI-H322M lung
HOP-62 NSCLC = test system: HOP-62 NSCLC
NCI-H460 lung = test system: NCI-H460 lung
HOP-92 NSCLC = test system: HOP-92 NSCLC
NCI-H522 lung = test system: NCI-H522 lung
A549/ATCC NSCLC = test system: A549/ATCC NSCLC
COLO 205 colon = test system: COLO 205 colon
SF-295 CNS = test system: SF-295 CNS
SF-539 CNS = test system: SF-539 CNS
UACC-257 melanoma = test system: UACC-257 melanoma
M14 melanoma = test system: M14 melanoma
HCT-15 colon = test system: HCT-15 colon
HT29 colon = test system: HT29 colon
SNB-75 CNS = test system: SNB-75 CNS
SNB-19 CNS = test system: SNB-19 CNS
U251 CNS = test system: U251 CNS
PC-3 prostate = test system: PC-3 prostate
SK-MEL-5 melanoma = test system: SK-MEL-5 melanoma
UACC-62 melanoma = test system: UACC-62 melanoma
LOX IMVI melanoma = test system: LOX IMVI melanoma
SK-MEL-28 melanoma = test system: SK-MEL-28 melanoma
SK-MEL-2 melanoma = test system: SK-MEL-2 melanoma
EKVX NSCLC = test system: EKVX NSCLC

Measured: growth

O=C(O)Cc1ccc(N(CCCl)CCCl)cc1
inactive: NCI-H23 lung 102% | NCI-H226 lung 108% | NCI-H322M lung 98.7% | HOP-62 NSCLC 103% | NCI-H460 lung 96.3% | HOP-92 NSCLC 105% | NCI-H522 lung 85.6% | A549/ATCC NSCLC 96.6% | COLO 205 colon 109% | SF-295 CNS 98.9% | SF-539 CNS 97.3% | UACC-257 melanoma 103% | M14 melanoma 104% | HCT-15 colon 104% | HT29 colon 105% | SNB-75 CNS 96.5% | SNB-19 CNS 111% | U251 CNS 98.5% | PC-3 prostate 94% | SK-MEL-5 melanoma 111% | UACC-62 melanoma 98.7% | LOX IMVI melanoma 89.2% | SK-MEL-28 melanoma 106% | SK-MEL-2 melanoma 105% | EKVX NSCLC 98.2%
